Measurements from US20210254138A1, “SIALIC ACID TRANSPORTER PROTEINS AS BIOMARKERS AND DRUG TARGETS” (Quadram Institute Bioscience, priority 2018, published 2021).

System: RgSBP (RUMGNA_02698, solute binding protein)
Experiment: Isothermal titration calorimetry (ITC) of RgSBP binding
Parameters: species or system R. gnavus ATCC 29149
Description: Isothermal titration calorimetry (ITC) experiments were performed using the PEAQ-ITC system (Malvern, Malvern, UK) with a cell volume of 200 μl. Prior to titration, protein samples were exhaustively dialysed into 50 mM Tris-HCl pH 7.5. The ligand was dissolved in the dialysis buffer. The cell protein concentration was 100 μM and the syringe ligand concentration was 2 mM. Controls with titrant (sugar) injected into the buffer only were subtracted from the data. The analysis was performed using the Malvern software, using a single-binding site model. Experiments were carried out in triplicate.

Compound: CC(=O)N[C@H]1C2OC(C(=O)O)(C[C@@H]1O)O[C@@H]2[C@H](O)CO (stereo partly drawn) [2,7-anhydro-Neu5Ac]
- ΔG of binding: -7.99 ± 0.05 kcal/mol
- ΔH of binding: -0.93 ± 0.03 kcal/mol
- −TΔS of binding: -7.05 ± 0.08 kcal/mol
